Pooled drug test results. Numbers come from NIAID ChemDB, via PubChem.

All rows: cytotoxicity tests; cells: VERO; measure: CC50

CCn: concentration that lowers growth or viability of the cells by n%. Lines come from different laboratories, so protocols vary. Blank or dashed fields: not listed here.

SMILES	method	result
Cc1cc(/C=C/c2cc3ccc(Cl)c(C)c3nc2Cl)c(C)s1	MTT	72.09 µM
Nc1nc2c(ncn2CC[C@@H](CO)OCP(=O)(O)O)c(=O)[nH]1	-	>100 µg/mL
O=C(NCN1CCN(c2ccc(F)cc2)CC1)c1cnccn1	-	>62.5 µg/mL
Nc1ccn([C@@H]2O[C@H](CO)C(F)(F)C2(F)F)c(=O)n1	-	>100 µM
Cc1cn([C@H]2C[C@H](N=[N+]=[N-])[C@@H](CO)S2)c(=O)[nH]c1=O	-	>100 µM
Cc1cn2c(C(=O)NCc3cccc(F)c3)c(C)nc2s1	fluorescence	>100 µM
O=c1ccn(C[C@H]2C[C@H]2CO)c(=O)[nH]1	-	>100 µM
Nc1nc2c(ncn2COC(CO)CO)c(=O)[nH]1	-	>100 µg/mL
CC(=O)OCCOCn1cnc2c(=O)oc(N)nc21	-	600 µM
Cc1c(C(=O)NCc2ccccc2)[n+](=O)c2cc(F)c(F)cc2n1[O-]	-	>18.3 µg/mL
Clc1ccc(OC(Cn2nnc3ccccc32)c2ccc(Cl)cc2Cl)cc1	MTT	>100 µg/mL
COc1ccc2nc(Cl)c(/C=C/C(=O)c3cc4ccccc4o3)cc2c1	MTS	13.7 µM
Cc1cn([C@@H]2O[C@H](CO)C(F)(F)C2(F)F)c(=O)[nH]c1=O	-	>100 µM
Cc1cn2c(C(=O)NCc3ccc(N(C)C)cc3)c(C)nc2s1	fluorescence	>100 µM
O=C(Cc1ccccc1Nc1c(Cl)cccc1Cl)N/N=C/c1ccccc1O	-	>24.13 µM
Nc1nc(=O)n([C@@H]2C=C[C@H](CO)O2)cc1F	-	>100 µM
c1ccc(-c2cc(N3CCCCC3)nc3nc(N4CCCCC4)ccc23)cc1	-	2.49 µg/mL
CCOP(=O)(OCC)C1=NOC(n2cc(C)c(=O)[nH]c2=O)C1	-	>400 µM
O=C(NC1CC[Si]2(CCCC2)CC1)c1cc2c(Cl)cc(Cl)cc2[nH]1	visual reading / absorbance	>20 µM
Nc1nc2c(ncn2CCC(O)CO)c(=O)[nH]1	-	500 µM
CCn1cc(C(=O)O)c(=O)c2cc(F)c(N3CCN(CNC(=O)c4cnccn4)CC3)cc21	-	>62.5 µg/mL
Fc1ccc(Cn2ccc3nc(-c4c(F)ccc(F)c4F)nc-3c2)c(F)c1	-	>100 µg/mL
Cc1c(CN2CCN(C)CC2)cc(-c2ccccc2)n1-c1ccc(Cl)cc1	-	4 µg/mL
Nc1nc2c(ncn2C[C@H]2C[C@H]2[C@H](O)CO)c(=O)[nH]1	-	>100 µM
Cc1cn([C@@H]2C=C(F)[C@H](CO)O2)c(=O)[nH]c1=O	-	>100 µM
Brc1sccc1-c1cc2ccccn2c1	MTT	500 µM
CCC(=O)OCCOCn1cnc2c(=O)oc(N)nc21	-	540 µM
COc1c(N2CCNC(C)C2)c(F)cc2c(=O)c(C(=O)O)cn(C3CC3)c12	-	>155.3 µM
Cc1csc(/C=C/c2cc3ccc(Cl)c(C)c3nc2Cl)c1	MTT	46.78 µM
CC(C)=CCCC1(C)C=Cc2ccc(O)c(C(=O)/C=C/c3ccc(O)c(C=O)c3)c2O1	MTT	31.7 µM
COC1=C2C[C@@H](C)C[C@@H](OC)[C@@H](O)[C@H](C)/C=C(\C)[C@@H](OC(N)=O)[C@H](OC)/C=C\C=C(/C)C(=O)NC(=CC1=O)C2=O	-	350 µM
Cc1c(N2COCC2(C)C)c([N+](=O)[O-])cc2c(=O)c(C(=O)O)cn(C3CC3)c12	-	161 µM
CCC(Sc1ncnc2c1cnn2CCCCO)C(N)=O	-	>400 µg/mL
Nc1ccn([C@@H]2O[C@H](CO)C=C2F)c(=O)n1	-	>100 µM
Fc1ccc2cc(-c3ccccc3)cn2c1	MTT	>500 µM
NC(=O)CSc1ncnc2c1cnn2COCC(O)CO	-	>400 µg/mL
O=c1[nH]cnc2c1ncn2[C@@H]1C=C(F)[C@H](CO)O1	-	>100 µM
Cc1cc(C)c2cc(C(=O)N[C@H]3CC[Si](C)(C)C3)[nH]c2c1	visual reading / absorbance	>64 µg/mL
O=c1[nH]c(=O)n([C@H]2C[C@H](O)[C@@H](CO)S2)cc1/C=C/Br	-	>500 µM
Nc1nc2c(ncn2CSC(CO)CO)c(=O)[nH]1	-	900 µM
CC(C)OC(=O)[C@H](C)NP(=O)(OC[C@H]1O[C@@H](n2cnc3c(=O)[nH]c(N)nc32)C(F)(F)C1(F)F)Oc1ccccc1	-	>100 µM
NC(=O)CSc1ncnc2c1cnn2COCCO	-	>400 µg/mL
CC(C)=CCCC1(C)C=Cc2c(ccc(C(=O)/C=C/c3cc(C=O)ccc3O)c2O)O1	MTT	22.2 µM
COc1c(N2CCN(C(=O)Cc3ccccc3Nc3c(Cl)cccc3Cl)C(C)C2)c(F)cc2c(=O)c(C(=O)O)cn(C3CC3)c12	-	>15.3 µM
COc1ccc2nc(Cl)c(/C=C/C(=O)c3cc(C)sc3C)cc2c1	MTS	8.9 µM
Cc1c(Cl)ccc2cc(/C=C/C(=O)c3ccccc3Br)c(Cl)nc12	MTT	52.01 µM
Cc1c(N2CCN(C(=O)c3ccco3)CC2)c([N+](=O)[O-])cc2c(=O)c(C(=O)O)cn(C3CC3)c12	-	134 µM
CCCCCCCCCCSc1ncnc2c1ncn2CC(=O)OC(C)(C)C	-	>10 µg/mL
CNC(=S)Nc1ccc(-c2n[nH]c(=S)n2C)cc1	-	<0.371 µg/mL
Clc1ccc(-c2nc3ccn(Cc4ccc(Br)cc4)cc-3n2)cc1	-	>100 µg/mL
Cc1c(N2CCN(C(=O)C3COc4ccccc4O3)CC2)c([N+](=O)[O-])cc2c(=O)c(C(=O)O)cn(C3CC3)c12	-	117 µM
CC1(C)[C@@H](CO)CC[C@@]1(C)Cn1ccc(=O)[nH]c1=O	-	>400 µg/mL
Nc1cccc(-c2cn(CC(Oc3ccc(Cl)cc3)c3ccc(Cl)cc3Cl)nn2)c1	MTT	>50 µg/mL
Cc1c(N2CCSCC2)c([N+](=O)[O-])cc2c(=O)c(C(=O)O)cn(C3CC3)c12	-	160 µM
Fc1ccccc1-c1cc2ccccn2c1	MTT	500 µM
O=c1ccn([C@@H]2C=C(F)[C@H](CO)O2)c(=O)[nH]1	-	>100 µM
Brc1ccc2cc(-c3ccccc3)cn2c1	MTT	>500 µM
Cc1cn2c(C(=O)NCc3ccc(N4CCOCC4)cc3)c(C)nc2s1	fluorescence	98 µM
Nc1nccc2c1ncn2[C@@H]1C[C@H](CO)[C@@H](O)[C@H]1O	-	>400 µg/mL
CC/C=C\C/C=C\C/C=C\C/C=C\C/C=C\CCCC(=O)OC(CO[C@H]1O[C@H](CS(=O)(=O)O)[C@@H](O)[C@H](O)[C@H]1O)OC(=O)CCCCCCCCCCCCCCC	neutral red	72 µg/mL
Nc1ccn([C@@H]2C=C(F)[C@H](CO)O2)c(=O)n1	-	>100 µM
C=C(C)/C=C/[C@]12C[C@H](C)[C@H]3CC[C@](C)(N)[C@@H](CC[C@H]1C)[C@@H]32	-	>128 µg/mL
Brc1ccc(Cn2ccc3nc(-c4ccccc4Br)nc-3c2)cc1	-	>42 µg/mL
Nc1ncnc2c1ncn2C[C@H]1C[C@H]1[C@H](O)CO	-	>100 µM
O=c1[nH]cnc2c1ncn2[C@H]1C=C(F)[C@@H](CO)O1	-	>100 µM
CC(C)OC(=O)[C@H](C)NP(=O)(OC[C@H]1O[C@@H](n2cnc3c(N)ncnc32)C(F)(F)C1(F)F)Oc1ccccc1	-	>100 µM
CC1(C)[C@@H](CO)CC[C@@]1(C)Cn1cc(Br)c(=O)[nH]c1=O	-	>400 µg/mL
Cc1ccc2nc(Cl)c(/C=C/C(=O)c3cc(Cl)sc3Cl)cc2c1	MTS	16.9 µM
Fc1cccc(F)c1Cn1ccc2nc(-c3c(F)cccc3F)nc-2c1	-	>100 µg/mL
Cc1c(CN2CCN(C)CC2)cc(-c2ccc(Cl)cc2)n1-c1ccc(Cl)cc1	-	4 µg/mL
O=c1ccn([C@@H]2O[C@H](CO)C(F)(F)C2(F)F)c(=O)[nH]1	-	>100 µM
Cc1cn2c(C(=O)NCc3ccccc3C(F)(F)F)c(C)nc2s1	fluorescence	73 µM
COc1c(N2CCN(CNC(=O)c3cnccn3)CC2)c(F)cc2c(=O)c(C(=O)O)cn(C3CC3)c12	-	>62.5 µg/mL
Clc1ccc(-c2cc3ccccn3c2)c(Cl)c1	MTT	>500 µM
COc1ccc(-c2c3nc(c(-c4ccc(OC)cc4)c4ccc([nH]4)c(-c4ccc(OC)cc4)c4nc(c(-c5ccc(OC)cc5)c5ccc2[nH]5)C=C4)C=C3)cc1	-	>200 µM
COc1ccc2nc(Cl)c(/C=C/C(=O)c3c4ccccc4cc4ccccc34)cc2c1	MTS	15.6 µM
O=C(O)c1cn(C2CC2)c2cc(N3CCN(C(=O)Cc4ccccc4Nc4c(Cl)cccc4Cl)CC3)c(F)cc2c1=O	-	>16.4 µM
COC1=C(OC)C(=O)C([C@H]2COc3c(cc(OC)c(OC)c3OC)C2)=CC1=O	-	>50 µg/mL
CC(=O)c1c(-c2ccc(Cl)c(Cl)c2)cc2ccccn12	MTT	162 µM
C=C[C@H](OC(C)=O)c1ccc(OC(C)=O)cc1	-	2 µg/mL
Nc1nc2c(ncn2[C@@H]2C=C[C@H](CO)C2)c(=O)[nH]1	-	>100 µM
CC1(C)[C@@H](CO)CC[C@@]1(C)Cn1nnc2c(Cl)ncnc21	-	>400 µg/mL
Nc1ccn([C@H]2C=C(F)[C@@H](CO)O2)c(=O)n1	-	>100 µM
CCCCCCCCCCSc1ncnc2c1ncn2CC(=O)OCC	-	>62.5 µg/mL
COc1ccc(C(=O)/C=C/c2cc3ccc(Cl)c(C)c3nc2Cl)cc1	MTT	31.9 µM

Repeating the final 12 entries:

| SMILES | method | result |
|---|---|---|
| Clc1ccc(-c2cc3ccccn3c2)c(Cl)c1 | MTT | >500 µM |
| COc1ccc(-c2c3nc(c(-c4ccc(OC)cc4)c4ccc([nH]4)c(-c4ccc(OC)cc4)c4nc(c(-c5ccc(OC)cc5)c5ccc2[nH]5)C=C4)C=C3)cc1 | - | >200 µM |
| COc1ccc2nc(Cl)c(/C=C/C(=O)c3c4ccccc4cc4ccccc34)cc2c1 | MTS | 15.6 µM |
| O=C(O)c1cn(C2CC2)c2cc(N3CCN(C(=O)Cc4ccccc4Nc4c(Cl)cccc4Cl)CC3)c(F)cc2c1=O | - | >16.4 µM |
| COC1=C(OC)C(=O)C([C@H]2COc3c(cc(OC)c(OC)c3OC)C2)=CC1=O | - | >50 µg/mL |
| CC(=O)c1c(-c2ccc(Cl)c(Cl)c2)cc2ccccn12 | MTT | 162 µM |
| C=C[C@H](OC(C)=O)c1ccc(OC(C)=O)cc1 | - | 2 µg/mL |
| Nc1nc2c(ncn2[C@@H]2C=C[C@H](CO)C2)c(=O)[nH]1 | - | >100 µM |
| CC1(C)[C@@H](CO)CC[C@@]1(C)Cn1nnc2c(Cl)ncnc21 | - | >400 µg/mL |
| Nc1ccn([C@H]2C=C(F)[C@@H](CO)O2)c(=O)n1 | - | >100 µM |
| CCCCCCCCCCSc1ncnc2c1ncn2CC(=O)OCC | - | >62.5 µg/mL |
| COc1ccc(C(=O)/C=C/c2cc3ccc(Cl)c(C)c3nc2Cl)cc1 | MTT | 31.9 µM |